{"source": "PubChem BioAssay AID1259414 (Drosophila RNAi Screening Center, 2018)", "test": "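Genome-wide screen for host control of endosymbiont load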 (primary screen)", "cells": "Drosophila JW18 cells infected with Wolbachia", "reagent": "long dsRNA against Drosophila genes, 0.25 µg dsRNA per well of a 384-well plate", "duration": "5 days", "challenge": "cells persistently infected with Wolbachia before knock-down; no added drug", "measured": "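Imaged fluorescence in situ signal for Wolbachia 23S rRNA per DAPI-counted host cell, given as a robust z-score within each plate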", "reading the numbers": "Wolbachia per cell robust z: higher = more Wolbachia per host cell than the plate typical", "active means": "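Hit when robust z is 1.5 or more, or -1.5 or less, in at least two of three replicates; excludes dsRNAs with several or no targets, genes not expressed in JW18 and well A1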", "note": "The screen tested about 24,000 reagents; below is a random part of those that have a named target and a result. Over the whole deposit, about 1,210 (5%) got an active call. 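Inactive calls also include excluded dsRNAs with several or no targets, genes unexpressed in JW18, and well A1, regardless of score.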 Reagents against one gene are numbered here. No sequences are given here."}
{"target gene":"CG11964 (GeneID 41068)","reagent no.":1,"Wolbachia per cell robust z, rep 1":-0.0772,"Wolbachia per cell robust z, rep 2":-0.166,"Wolbachia per cell robust z, rep 3":-2.3,"outcome":"inactive"}
{"target gene":"CG11964 (GeneID 41068)","reagent no.":2,"Wolbachia per cell robust z, rep 1":-0.17,"Wolbachia per cell robust z, rep 2":0.917,"Wolbachia per cell robust z, rep 3":0.501,"outcome":"inactive"}
{"target gene":"CG34302 (GeneID 5740537)","reagent no.":1,"Wolbachia per cell robust z, rep 1":-0.998,"Wolbachia per cell robust z, rep 2":0.169,"Wolbachia per cell robust z, rep 3":-0.861,"outcome":"inactive"}
{"target gene":"CG6380 (GeneID 35040)","reagent no.":1,"Wolbachia per cell robust z, rep 1":-0.69,"Wolbachia per cell robust z, rep 2":-1.44,"Wolbachia per cell robust z, rep 3":0.237,"outcome":"inactive"}
{"target gene":"kin17 (GeneID 40242)","reagent no.":1,"Wolbachia per cell robust z, rep 1":0.0501,"Wolbachia per cell robust z, rep 2":0.276,"Wolbachia per cell robust z, rep 3":0.22,"outcome":"inactive"}
{"target gene":"kin17 (GeneID 40242)","reagent no.":2,"Wolbachia per cell robust z, rep 1":0.0484,"Wolbachia per cell robust z, rep 2":0.583,"Wolbachia per cell robust z, rep 3":-0.0457,"outcome":"inactive"}
{"target gene":"Rpt5 (GeneID 42805)","reagent no.":1,"Wolbachia per cell robust z, rep 1":3.18,"Wolbachia per cell robust z, rep 2":1.86,"Wolbachia per cell robust z, rep 3":2.12,"outcome":"active"}
{"target gene":"Rpt5 (GeneID 42805)","reagent no.":2,"Wolbachia per cell robust z, rep 1":2.34,"Wolbachia per cell robust z, rep 2":1.99,"Wolbachia per cell robust z, rep 3":1.95,"outcome":"active"}
{"target gene":"CG2211 (GeneID 38157)","reagent no.":1,"Wolbachia per cell robust z, rep 1":-1.63,"Wolbachia per cell robust z, rep 2":1.13,"Wolbachia per cell robust z, rep 3":1,"outcome":"inactive"}
{"target gene":"Eglp4 (GeneID 37739)","reagent no.":1,"Wolbachia per cell robust z, rep 1":-0.882,"Wolbachia per cell robust z, rep 2":-0.663,"Wolbachia per cell robust z, rep 3":-0.772,"outcome":"inactive"}
{"target gene":"Eglp4 (GeneID 37739)","reagent no.":2,"Wolbachia per cell robust z, rep 1":0.025,"Wolbachia per cell robust z, rep 2":-0.0793,"Wolbachia per cell robust z, rep 3":-0.402,"outcome":"inactive"}
{"target gene":"lncRNA:CR32660 (GeneID 3771836)","reagent no.":1,"Wolbachia per cell robust z, rep 1":-2.14,"Wolbachia per cell robust z, rep 2":-1.35,"Wolbachia per cell robust z, rep 3":-1.74,"outcome":"inactive"}
{"target gene":"lncRNA:CR32660 (GeneID 3771836)","reagent no.":2,"Wolbachia per cell robust z, rep 1":-1.25,"Wolbachia per cell robust z, rep 2":-0.412,"Wolbachia per cell robust z, rep 3":-0.542,"outcome":"inactive"}

2 of these entries in another layout:
| target gene | reagent no. | Wolbachia per cell robust z, rep 1 | Wolbachia per cell robust z, rep 2 | Wolbachia per cell robust z, rep 3 | outcome |
| --- | --- | --- | --- | --- | --- |
| CG11964 (GeneID 41068) | 2 | -0.17 | 0.917 | 0.501 | inactive |
| CG34302 (GeneID 5740537) | 1 | -0.998 | 0.169 | -0.861 | inactive |
